Anti-infective test results gathered from many reports (values: NIAID ChemDB through PubChem).

Common to all: tests on isolated targets; species: HIV; target: Reverse transcriptase

Lines come from different laboratories, so protocols vary. Fold resistance has wild type as its base. ICn: concentration for n% inhibition. Blank or dashed fields: not listed here.

smiles,changes,method,endpoint,value
Nc1nc2c(ncn2[C@H]2CC[C@@H](COP(=O)(O)OP(=O)(O)OP(=O)(O)O)O2)c(=O)[nH]1,RT-V77I F116Y Q151M,nucleotide incorporation / radiometric,IC50,0.054 µM
COc1cc(C#N)cc(Oc2c(Cl)ccc(Cc3cc(C)c(=O)[nH]n3)c2F)c1,WT,-,IC50,0.002 µM
Nc1nc2c(ncn2[C@H]2CC[C@@H](COP(=O)(O)OP(=O)(O)OP(=O)(O)O)O2)c(=O)[nH]1,RT-D67N K70R T215Y K219Q,nucleotide incorporation / radiometric,fold resistance,0.77
Nc1nc2c(ncn2[C@H]2CC[C@@H](COP(=O)(O)OP(=O)(O)OP(=O)(O)O)O2)c(=O)[nH]1,RT-L74V T215Y,-,Ki,0.2 µM
CC(C)=CCN1Cc2cccc3[nH]c(=S)n(c23)C[C@@H]1C,RT-V60T,nucleotide incorporation,IC50,1.4 µM
Nc1ccn([C@H]2CC[C@@H](COP(=O)(O)OP(=O)(O)OP(=O)(O)OP(=O)(O)OC[C@@H]3CC[C@H](n4ccc(N)nc4=O)O3)O2)c(=O)n1,RT-K65R,nucleotide incorporation / radiometric,fold resistance,5.26
Nc1ccn([C@@H]2CC[C@H](COP(=O)(O)OP(=O)(O)OP(=O)(O)O)O2)c(=O)n1,-,nucleotide incorporation / radiometric,Ki,10 µM
CC(C)=CCN1Cc2cccc3[nH]c(=S)n(c23)C[C@@H]1C,-,nucleotide incorporation,Ki,1.04 µM
Nc1ccn([C@@H]2CS[C@H](COP(=O)(O)OP(=O)(O)OP(=O)(O)O)O2)c(=O)n1,RT-L74V K103N,radiometric,Ki,0.15 µM
Nc1nc2c(ncn2[C@H]2CC[C@@H](COP(=O)(O)OP(=O)(O)OP(=O)(O)OP(=O)(O)OC[C@@H]3CC[C@H](n4cnc5c(=O)[nH]c(N)nc54)O3)O2)c(=O)[nH]1,RT-M41L T215Y,nucleotide incorporation / radiometric,IC50,0.39 µM
Nc1ccn([C@H]2CC[C@@H](COP(=O)(O)OP(=O)(O)OP(=O)(O)O)O2)c(=O)n1,RT-L74V T215Y,-,Ki,75 µM
CN(C)CCCN=C(N)c1ccc(C(N)=NCCCN(C)C)cc1,RT-Y188L,nucleotide incorporation / radiometric,fold resistance,5.95
Nc1ncnc2c1ncn2[C@H]1CC[C@@H](COP(=O)(O)OP(=O)(O)OP(=O)(O)O)O1,RT-V75I F77L F116Y Q151M,nucleotide incorporation / radiometric,Ki,4.6 µM
Cc1cn([C@H]2CC[C@@H](COP(=O)(O)OP(=O)(O)OP(=O)(O)O)O2)c(=O)[nH]c1=O,RT-W88G,nucleotide incorporation / radiometric,fold resistance,3.45

Repeating the final 2 entries:

smiles	changes	method	endpoint	value
Nc1ncnc2c1ncn2[C@H]1CC[C@@H](COP(=O)(O)OP(=O)(O)OP(=O)(O)O)O1	RT-V75I F77L F116Y Q151M	nucleotide incorporation / radiometric	Ki	4.6 µM
Cc1cn([C@H]2CC[C@@H](COP(=O)(O)OP(=O)(O)OP(=O)(O)O)O2)c(=O)[nH]c1=O	RT-W88G	nucleotide incorporation / radiometric	fold resistance	3.45